Compound potency records, mixed from different reports. Data source: NIAID ChemDB in PubChem.

Common to all: growth or infection tests; agent: HIV-1

Blank or dashed fields: not listed here. ECn is the concentration giving n% inhibition of infection, replication or growth. Neighbouring rows are from separate reports.

SMILES,cells,strain,endpoint,conditions,mutations,method,result
COC(=O)P(=O)(OCOC(=O)C(C)C)OCOC(=O)C(C)C,H9,IIIB,EC50,,,cytopathic effect / MTT,>150 µM
[N-]=[N+]=N[C@H]1C[C@H](n2cnc3c(N4CCCC4)nc(N)nc32)O[C@@H]1CO,MT-4,IIIB,EC50,,,cytopathic effect,8 µM
N#CN=C1N(Cc2ccc(C#N)cc2)[C@H](Cc2ccccc2)[C@H](O)[C@@H](O)[C@@H](Cc2ccccc2)N1Cc1ccc(C#N)cc1,MT-2,RF,EC50,,,hybridisation,<7.7 µM
CCCCCCCCCC(=O)O[C@@]12[C@H](OCOC)[C@@H](C)[C@@]3(O)[C@@H](C=C(CO)C[C@]4(O)C(=O)C(C)=C[C@@H]34)[C@@H]1C2(C)C,MT-4 + mouse plasma + MT-4,IIIB,EC50,,,cytopathic effect / MTT,<0.1 µg/mL
COc1cc2cc[n+](C)c(Cc3ccc4c(c3)OCO4)c2cc1OC,H9,IIIB,EC50,,,p24,>22.4 µg/mL
CC1=C[C@H]2[C@@]3(O)[C@H](C)[C@@H](O)[C@]4(O)[C@H]([C@@H]3C=C(CO)C[C@]2(O)C1=O)C4(C)C,MT-4,IIIB,EC50,,,,>10 µg/mL
CCOCn1c(C)c(Cc2ccccc2)c(=O)[nH]c1=O,MT-4,,EC50,,,ELISA,30 µM
CSc1nc(N)nc2c1ncn2[C@H]1C[C@H](N=[N+]=[N-])[C@@H](CO)O1,MT-4,IIIB,EC50,,,cytopathic effect,>200 µM
CC1NCCc2cc(O)c(O)cc21,H9,IIIB,EC50,,,p24,0.117 µg/mL
O=c1[nH]cnc2c1ncn2[C@H]1CC[C@@H](CO)O1,MT-2,LAI,EC50,,,cytopathic effect / MTT,2.5 µM
CCc1c2cc(O)c(O)cc2cc[n+]1C,H9,IIIB,EC50,,,p24,<0.1 µg/mL
CCCc1c(C)[nH]c(=O)c(N(C)C)c1Cc1cc(C)cc(C)c1,MT-4,LAI,EC50,,,cytopathic effect / MTT,50.1 µM
CC(=O)OCOP(=O)(OCOC(C)=O)C(=O)Oc1ccc(Cl)cc1Cl,H9,IIIB,EC50,,,cytopathic effect / MTT,<8 µM
S=C(NCCc1cccs1)Nc1ccc(Br)cn1,PBMC,NRTI resistant (RT Y181C K103N) A17 variant,EC50,,RT-Y181C K103N,p24,3.2 µM
CCCCN1C(=O)N(CCCC)[C@H](Cc2ccccc2)[C@H](O)[C@@H](O)[C@H]1Cc1ccccc1,MT-2,RF,EC50,,,hybridisation,<0.68 µM
CN(c1nc(N)nc2c1ncn2[C@H]1C[C@H](N=[N+]=[N-])[C@@H](CO)O1)C1CC1,MT-4,IIIB,EC50,,,cytopathic effect,4 µM
CC[C@H]1OC(=O)[C@H](C)[C@@H](O[C@H]2C[C@@](C)(OC)[C@@H](O)[C@H](C)O2)[C@H](C)[C@@H](O[C@@H]2O[C@H](C)C[C@H](N(C)C)[C@H]2O)[C@](C)(O)C[C@@H](C)/C(=N\OCOCCOC)[C@H](C)[C@@H](O)[C@]1(C)O,PBMC,LAV,EC90,,,RT activity,>1000 µM
Nc1ncnc2c([C@H]3CC[C@](CCP(=O)(O)O)(C(F)(F)F)C3)c[nH]c12,PBMC,LAI,EC50,,,,29.7 µM
CCOc1nc(N)nc2c1ncn2[C@H]1C[C@H](N=[N+]=[N-])[C@@H](CO)O1,MT-4,IIIB,EC50,,,cytopathic effect,23 µM
CC(C)c1nc(CN(C)C(=O)N[C@H](C(=O)N[C@@H](Cc2ccccc2)C[C@H](O)[C@H](Cc2ccccc2)NC(=O)OCc2cncs2)C(C)C)cs1,MT-4,NL4-3,EC90,,,p24,0.1 µM
Nc1nc(NC2CC2)c2ncn([C@H]3C=C[C@@H](CO)C3)c2n1,MT-4,,EC50,,RD 23-RTwt,cytopathic effect / MTT,1.78 µM
CCCCCCCCCCCCCCOC[C@H](CS[C@]1(C(=O)O)C[C@H](OS(=O)(=O)O)[C@@H](NC(C)=O)[C@H]([C@H](OS(=O)(=O)O)[C@@H](COS(=O)(=O)O)OS(=O)(=O)O)O1)OCCCCCCCCCCCCCC,H9,IIIB,EC50,,,p24,11 µM
Cc1cn([C@H]2C[C@H](N=[N+]=[N-])[C@@H](CO)O2)c(=O)[nH]c1=O,H9,,EC50,,,p24,0.04 µM
CCCCCCCCCCCCCCCCCCCCCCC(=O)O[C@@H]1[C@@H](C)[C@@]2(O)[C@@H](C=C(COC(C)=O)C[C@]3(O)C(=O)C(C)=C[C@@H]23)[C@@H]2C(C)(C)[C@]12O,PBMC,KM018,EC50,,,p24 / ELISA,0.106 µM
CC(C)Nc1cccnc1N1CCN(C(=O)c2cc3cc(NS(C)(=O)=O)ccc3[nH]2)CC1,PBMC,NRTI resistant (RT Y181C K103N) A17 variant,EC50,,RT-Y181C K103N,p24,>100 µM
Oc1cc(O)c2c(c1)O[C@H](c1cc(O)c(O)c(O)c1)[C@@H](O)C2,C8166,,EC50,,,,5 µg/mL
C[C@H](Cn1cnc2c(N)ncnc21)OCP(=O)(O)O,MT-4,HXB2,EC50,,HXB2-RTwt,cytopathic effect / MTT,0.48 µM
N#CN=C1N(Cc2cccc(OCc3ccccc3)c2)[C@H](Cc2ccccc2)[C@H](O)[C@@H](O)[C@@H](Cc2ccccc2)N1Cc1cccc(OCc2ccccc2)c1,MT-2,RF,EC90,,,hybridisation,>67.3 µM
CN(C)CCCNC(=O)c1cc(NC(=O)c2cc(NC(=O)c3cc(NC4C(=O)c5ccccc5C4=O)cn3C)cn2C)cn1C,CEM,,EC50,,,cytopathic effect / XTT,52 µM
Cc1cn([C@H]2C[C@H](N=[N+]=[N-])[C@@H](CO)O2)c(=O)[nH]c1=O,PBMC,LAI Laboratory isolate,EC50,,,p24,0.003 µM
C=C(C)[C@@H]1CC[C@]2(C(=O)NCCCCCCCC(=O)N[C@@H](CC(C)C)[C@H](O)CC(=O)O)CC[C@]3(C)[C@H](CC[C@@H]4[C@@]5(C)CC[C@H](O)C(C)(C)[C@@H]5CC[C@]43C)[C@@H]12,MT-4,DH012,EC50,,,RT activity,<53 µM
[N-]=[N+]=N[C@H]1C[C@H](n2cnc3c(NCc4ccccc4)nc(N)nc32)O[C@@H]1CO,MT-4,IIIB,EC50,,,cytopathic effect,>200 µM
Cc1cn([C@H]2C[C@H](N=[N+]=[N-])[C@@H](CO)O2)c(=O)[nH]c1=O,CEM + CEM-SS,RF,EC50,,,cytopathic effect / XTT,0.002 µM
Clc1ccccc1-c1nc2ccccn2c1NC1CCCCC1,293T,,EC50,pseudotyped,,luciferase,0.046 µM
COc1cc2ccnc(Cc3ccc4c(c3)OCO4)c2cc1OC,H9,IIIB,EC50,,,p24,>21.6 µg/mL
CCCCCCCCCCCCCCCCCCCCCCOCC(C)(COCCCCCCCCCCCCCCCCCCCCCC)CO[C@]1(C(=O)O)C[C@H](OS(=O)(=O)O)[C@@H](NC(C)=O)[C@H]([C@H](OS(=O)(=O)O)[C@@H](COS(=O)(=O)O)OS(=O)(=O)O)O1,PBMC,10001 Clinical isolate,EC50,,,p24,40 µM
[N-]=[N+]=N[C@H]1C[C@H](n2cnc3c(N4CCC4)nc(N)nc32)O[C@@H]1CO,MT-4,IIIB,EC50,,,cytopathic effect,9 µM
C[C@@H]1CC[C@H]2[C@@H](C)CO[C@@H]3OC4(C)CC[C@@H]1[C@]32OO4,PBMC,LAV,EC50,,,RT activity,>100 µM
CC(C)CN(C[C@@H](O)[C@H](Cc1ccccc1)NC(=O)O[C@H]1CCOC1)S(=O)(=O)c1ccc(N)cc1,PBMC,Clinical isolate,EC50,,PR-L10I K43T M46L I54L L63P A71T V82A L90M Q92K,p24,0.67 µM
C[C@@H]1CC[C@H]2[C@@H](C)C(=O)O[C@@H]3OC4(C)CC[C@@H]1[C@]32OO4,PBMC,LAV,EC50,,,RT activity,>100 µM
COC(=O)[C@H](C)NP(=O)(OC[C@H]1C/C1=C/n1cnc2c(N)nc(N)nc21)Oc1ccccc1,PBMC,ERS104pre,EC50,,,p24,0.21 µM
Cc1c(CBr)c(=O)n(Cc2ccccc2)c(=O)n1Cc1ccccc1,MT-4,,EC50,,,ELISA,26 µM
CC(C)(C)NC(=O)[C@@H]1CN(Cc2cccnc2)CCN1C[C@@H](O)C[C@@H](Cc1ccccc1)C(=O)N[C@H]1c2ccccc2C[C@H]1O,PBMC,Clinical isolate,EC50,,PR-L10I V11I T12E I15V L19I R41K M46L L63 A71T V82A L90M,p24,0.21 µM
CCCc1nccc2cc(O)c(O)cc12,H9,IIIB,EC50,,,p24,>2.23 µg/mL
COc1ccc(S(=O)(=O)N(CC(C)C)C[C@@H](O)[C@H](Cc2ccccc2)NC(=O)O[C@H]2CO[C@H]3OCC[C@H]32)cc1,PBMC,ERS104PRE(PR-L63P) Clinical isolate,EC50,,PR-L63P,p24,0.0007 µM
Cc1[nH]c(=O)[nH]c(=O)c1Cc1ccccc1,MT-4,,EC50,,,ELISA,>53 µM
O=c1c(O[C@@H]2O[C@H](CO)[C@@H](O)[C@H](O)[C@H]2O)c(-c2ccc(O)cc2)oc2cc(O)cc(O)c12,C8166,,EC50,,,,10 µg/mL
CO[P@](=O)(c1cc(C)cc(/C=C/C#N)c1)c1c(C(N)=O)[nH]c2ccc(Cl)c(F)c12,MT-4,BH10,EC50,,K103N,,0.0003 µM
CN(C)CCCNC(=O)c1cc(NC(=O)c2cc(NC(=O)c3cc(NC(=O)c4ccc(C(=O)Nc5cc(C(=O)Nc6cc(C(=O)Nc7cc(C(=O)NCCCN(C)C)n(C)c7)n(C)c6)n(C)c5)cc4)cn3C)cn2C)cn1C,CEM,,EC50,,,cytopathic effect / XTT,>100 µM
CC[C@H]1OC(=O)[C@H](C)[C@@H](O[C@H]2C[C@@](C)(OC)[C@@H](O)[C@H](C)O2)[C@H](C)[C@@H](O[C@@H]2O[C@H](C)C[C@H](N(C)C)[C@H]2O)[C@](C)(OC)C[C@@H](C)C(=O)[C@H](C)[C@@H](O)[C@]1(C)O,PBMC,LAV,EC50,,,RT activity,<600 µM
Nc1ncnc2c([C@H]3CC[C@](/C=C/P(=O)(O)O)(C(F)(F)F)C3)c[nH]c12,PBMC,LAI,EC50,,,,62.8 µM
CCOc1ccc(Cc2nccc3cc(OCC)c(OCC)cc23)cc1OCC,H9,IIIB,EC50,,,p24,8.04 µg/mL
[B-]P(=O)(OC[C@H]1O[C@H](n2cc(C)c(=O)[nH]c2=O)C[C@@H]1N=[N+]=[N-])OP(=O)(O)O[C@H]1O[C@H](CO)[C@@H](O)[C@H](O)[C@H]1O,PBMC (PHA stimulated) + PBMC,LAI,EC50,,,RT activity,0.075 µM
Cc1cn([C@H]2C[C@H](N=[N+]=[N-])[C@@H](CO)O2)c(=O)[nH]c1=O,CEM + CEM-SS,RF,EC50,,,cytopathic effect / XTT,0.004 µM
[N-]=[N+]=N[C@H]1C[C@H](n2cnc3c(Nc4ccccc4)nc(N)nc32)O[C@@H]1CO,MT-4,IIIB,EC50,,,cytopathic effect,112 µM
COC(=O)[C@H](C)NP(=O)(OCC1C/C1=C\n1cnc2c(N)ncnc21)Oc1ccccc1,MT-2,LAI,EC50,,,p24,0.51 µM
CC(C)Oc1nc(N)nc2c1ncn2[C@H]1C[C@H](N=[N+]=[N-])[C@@H](CO)O1,MT-4,IIIB,EC50,,,cytopathic effect,22 µM
O=C(O[C@@H]1Cc2c(O)cc(O)cc2O[C@@H]1c1ccc(O)c(O)c1)c1cc(O)c(O)c(O)c1,C8166,,EC50,,,,1 µg/mL
O=C1N(Cc2ccc(O)cc2)[C@H](Cc2ccccc2)[C@H](O)[C@@H](O)[C@@H](Cc2ccccc2)N1Cc1ccc(O)cc1,MT-2,RF,EC50,,,hybridisation,<0.032 µM
Cc1c(COCc2ccccc2)c(=O)n(Cc2ccccc2)c(=O)n1Cc1ccccc1,MT-4,,EC50,,,ELISA,>53 µM
Cc1ccnc2c1NC(=O)c1cccnc1N2C1CC1,MT-4,LAI,EC50,,,cytopathic effect / MTT,0.032 µM
Cc1ncn(-c2ncc(F)c3c(C(=O)C(=O)N4CCC(C(O)(c5ccccc5)c5nccn5C)CC4)c[nH]c23)n1,MT-2,LAI,EC50,,,luciferase / reporter gene / single cycle,<0.5 µM
CCCCCCCCCC(=O)O[C@@]12[C@H](OC(C)=O)[C@@H](C)[C@@]3(O)[C@@H](C=C(CO)C[C@]4(O)C(=O)C(C)=C[C@@H]34)[C@@H]1C2(C)C,MT-4 + mouse plasma + MT-4,IIIB,EC50,,,cytopathic effect / MTT,<0.1 µg/mL
CC(=O)N[C@H]1[C@H]([C@H](OS(=O)(=O)O)[C@@H](COS(=O)(=O)O)OS(=O)(=O)O)O[C@@](O[C@H]2CC[C@@]3(C)C(=CC[C@H]4[C@@H]5CC[C@H]([C@H](C)CCCC(C)C)[C@@]5(C)CC[C@@H]43)C2)(C(=O)O)C[C@@H]1OS(=O)(=O)O,H9,IIIB,EC50,,,p24,40 µM
O=Nc1c(-c2c(O)[nH]c3ccccc23)[nH]c2ccccc12,PBMC,ADA R5,EC50,,,RT activity,0.5 µM
O=C(CN1CCCC1)Nc1ccc(Cc2ccc(NC(=O)CN3CCCC3)cc2)cc1,C8166,IIIB,EC50,,,MTT,17.05 µg/mL
CCCCCCCCCCCCCCCCCCCCCCOC[C@H](CO[C@]1(C(=O)O)C[C@H](OS(=O)(=O)O)[C@@H](NC(C)=O)[C@H]([C@H](OS(=O)(=O)O)[C@@H](COS(=O)(=O)O)OS(=O)(=O)O)O1)OCCCCCCCCCCCCCCCCCCCCCC,PBMC,9446 Clinical isolate,EC50,,,p24,10 µM
N#CN=C1N(Cc2ccc([N+](=O)[O-])cc2)[C@H](Cc2ccccc2)[C@H](O)[C@@H](O)[C@@H](Cc2ccccc2)N1Cc1ccc([N+](=O)[O-])cc1,MT-2,RF,EC50,,,hybridisation,<19.3 µM